Compound potency records, mixed from different reports. Data source: NIAID ChemDB in PubChem.

Common to all: whole-cell or culture tests; organism: HIV-1; cell line: PBMC; measure: EC90

Rows are shuffled and stem from different studies. Two numbers with a dash give a range or band. Blank or dashed fields: not listed here. ECn: concentration that inhibits the pathogen or its effect by n%.

| smiles | strain | changes | read by | value |
|---|---|---|---|---|
| O=C(CN1c2c(-c3ccccc3)n[nH]c2-c2ccccc2S1(=O)=O)N/N=C/c1cccc(Br)c1 |  |  |  | 35.9 µM |
| C[C@@]1(O)[C@H](O)[C@@H](CO)O[C@H]1n1ccc(N)nc1=O | LAI |  | RT activity | >100 µM |
| CC(=O)OC[C@H]1O[C@@H]2Oc3[nH]c(=O)[nH]c(=O)c3S[C@@H]2[C@@H](OC(C)=O)[C@H]1OC(C)=O | LAI |  | RT activity | >100 µM |
| Cc1cccc(C(=O)OCc2nc3ccccc3nc2C)c1O | BaL |  | RT activity | >100 µM |
| CCCCCCCCCCCCCCCC(=O)Nc1nc(N)nc2c1ncn2[C@H]1CO[C@@H](COP(=O)(N[C@@H](C)C(=O)OCC)Oc2ccccc2)O1 | LAV-1 |  | RT activity | 0.5 µM |
| COC(=O)c1ccc(C(=O)OCc2nc3ccccc3nc2C)cc1 | BaL |  | RT activity | >100 µM |
| CC(=O)O[C@@H]1[C@@H](OC(C)=O)[C@H](C)O[C@@H]2Oc3c(c(=O)n(C)c(=O)n3C)S[C@@H]21 | LAI |  | RT activity | 123 µM |
| Nc1nc2c(ncn2[C@@H]2OC[C@H](CCP(=O)(O)O)C23CC3)c(=O)[nH]1 | LAV-1 |  | RT activity | 95 µM |
| CC(C)(C)OC(=O)N1[C@H](CO)CC(F)(F)[C@@H]1n1ccc(=O)[nH]c1=O | LAI |  |  | >100 µM |
| CCCCCCCCCCCCCC(=O)Nc1nc(N)nc2c1ncn2[C@H]1CO[C@@H](COP(=O)(N[C@@H](C)C(=O)OCC)Oc2ccccc2)O1 | LAV-1 |  | RT activity | 0.89 µM |
| Nc1nc2c(ncn2[C@@H]2OC[C@H](/C=C/P(=O)(O)O)C23CC3)c(=O)[nH]1 | LAV-1 |  | RT activity | 95 µM |
| COc1ccc(/C=N/NC(=O)CN2c3c(-c4ccccc4)n[nH]c3-c3ccccc3S2(=O)=O)cc1 |  |  |  | 81 µM |
| CCCCCC(=O)Nc1nc(N)nc2c1ncn2[C@H]1CO[C@@H](CO)O1 | LAV-1 |  | RT activity | >100 µM |
| CC(C)(C)C(=O)OCOP(=O)(CC[C@H]1O[C@@H](n2ccc(N)nc2=O)[C@](C)(F)[C@@H]1O)OCOC(=O)C(C)(C)C | LAI |  | PCR | >100 µM |
| Nc1nc(=O)n([C@H]2C=C[C@@H](CO)O2)cc1F | NL4-3 WT |  | p24 | 1.3 µM |
| Cc1cn([C@H]2C[C@H](N=[N+]=[N-])[C@@H](CO)O2)c(=O)[nH]c1=O | LAI |  | RT activity | 0.12 µM |
| CCCCCCCCCCCCCCCCOCCCOP(=O)(O)OC[C@@H]1OC[C@H](n2cc(C)c(=O)[nH]c2=O)O1 | LAI | RT-M184V | RT activity | 15.4 µM |
| COc1cc(C(=O)OCc2nc3ccccc3nc2C)cc(OC)c1OC | 89BZ167 |  | RT activity | >100 µM |
| NCC(NC(=O)c1ccc(-c2ccc(C(F)(F)F)c(F)c2)[nH]1)c1nc(CO)cs1 | NL4-3 |  | p24 / ELISA | >10 µM |
| Nc1nc2c(ncn2[C@H]2CO[C@@H](CO)O2)c(=O)[nH]1 | LAI |  | RT activity | 2.6 µM |
| Cc1cn([C@H]2C[C@H](N=[N+]=[N-])[C@@H](CO)O2)c(=O)[nH]c1=O | 89BZ167 |  | RT activity | 0.0097 µM |
| CCOC(=O)[C@H](C)NP(=O)(OC[C@@H]1OC[C@H](n2cnc3c(N)nc(N)nc32)O1)Oc1ccccc1 | LAI |  | RT activity | 1.5 µM |
| CCN(CC)C(=O)OC[C@@H]1CN(C(=O)c2ccccc2)CCN1C(=O)C(=O)c1c[nH]c2nccc(OC)c12 | LAI |  | RT activity | >125 µM |
| CC(C)(C)OC(=O)N1[C@H](CO)CC(F)(F)[C@H]1n1cnc2ncnc(N)c21 | LAI |  |  | >100 µM |
| CCCC(=O)Nc1nc(N)nc2c1ncn2[C@H]1CO[C@@H](COP(=O)(N[C@@H](C)C(=O)OCC)Oc2ccccc2)O1 | LAV-1 |  | RT activity | 15 µM |
| Cc1nc2ccccc2nc1COC(=O)c1ccc(O)cc1 | 89BZ167 |  | RT activity | >100 µM |
| CCN(CC)c1ccc(/C=N/NC(=O)CN2c3c(-c4ccccc4)n[nH]c3-c3ccccc3S2(=O)=O)cc1 |  |  |  | 61.4 µM |
| CC(C)(C)OC(=O)N1[C@H](CO)CC(F)(F)[C@@H]1n1cnc2ncnc(Cl)c21 | LAI |  |  | >100 µM |
| CCCCOC(=O)c1cc(O)c(O)c(O)c1 |  |  | p24 / ELISA | 0.005–0.01 µg/mL |
| C[C@H]1[C@H](O)[C@@H](C)/C=C/C=C/C=C/C=C/C=C/C=C/C=C/[C@H](O[C@@H]2O[C@H](C)[C@@H](O)[C@H](N)[C@@H]2O)C[C@@H]2O[C@](O)(C[C@@H](O)C[C@@H](O)CC[C@H](O)[C@@H](O)C[C@@H](O)CC(=O)O[C@H]1C)C[C@H](O)[C@H]2C(=O)O | 92TH026 CLADE B R5 (NSI) |  | p24 / RT activity | >25 µM |
| CN1c2c(-c3ccccc3)nn(CC(=O)N/N=C/c3cccc(Cl)c3)c2-c2ccccc2S1(=O)=O | LAV-1 |  | RT activity | >100 µM |
| C=CCc1ccc(O)c(-c2cc(CC=C)ccc2O)c1 | LAV |  | RT activity | >100 µM |
| CCOc1cc(/C=N/NC(=O)Cn2nc(-c3ccccc3)c3c2-c2ccccc2S(=O)(=O)N3C)ccc1O | LAV-1 |  | RT activity | 15.5 µM |
| O=C(CN1c2c(-c3ccccc3)n[nH]c2-c2ccccc2S1(=O)=O)N/N=C/c1cccc(Cl)c1 |  |  |  | 43.4 µM |
| CN(C)c1ccc(/C=N/NC(=O)Cn2nc(-c3ccccc3)c3c2-c2ccccc2S(=O)(=O)N3C)cc1 | LAV-1 |  | RT activity | >100 µM |
| Nc1nc(NC2CC2)c2ncn([C@H]3C=C[C@@H](CO)C3)c2n1 | XM-ABC-resistant | RT-K65R L74V M184V Y115F | p24 | 87 µM |
| O=C(CN1c2c(-c3ccccc3)n[nH]c2-c2ccccc2S1(=O)=O)N/N=C/c1c(Cl)cccc1Cl |  |  |  | 52.5 µM |
| CC(C)(C)OC(=O)N1[C@H](CO)CC(F)(F)[C@H]1n1cnc2ncnc(Cl)c21 | LAI |  |  | >100 µM |
| CCOC(=O)[C@H](C)NP(=O)(OC[C@@H]1OC[C@H](n2cnc3c(=O)[nH]c(N)nc32)O1)Oc1ccccc1 | LAI |  | RT activity | 1.2 µM |
| CN1c2c(-c3ccccc3)nn(CC(=O)N/N=C/c3ccccc3[N+](=O)[O-])c2-c2ccccc2S1(=O)=O | LAV-1 |  | RT activity | >100 µM |
| NNC(=O)CN1c2c(-c3ccccc3)n[nH]c2-c2ccccc2S1(=O)=O |  |  |  | >100 µM |
| CCCCCCCCCCCC(=O)Nc1nc(N)nc2c1ncn2[C@H]1CO[C@@H](COP(=O)(N[C@@H](C)C(=O)OCC)Oc2ccccc2)O1 | LAV-1 |  | RT activity | 2.9 µM |
| CCN(CC)c1ccc(/C=N/NC(=O)Cn2nc(-c3ccccc3)c3c2-c2ccccc2S(=O)(=O)N3C)cc1 | LAV-1 |  | RT activity | >100 µM |
| CC(C)(C)OC(=O)N1[C@H](CO)CC(F)(F)[C@H]1n1cc(F)c(=O)[nH]c1=O | LAI |  |  | 75.6 µM |
| CCCc1ccc(OP(=O)(N[C@@H](C)C(=O)OC)OC[C@@H]2OC[C@H](n3cc(C)c(=O)[nH]c3=O)O2)cc1 | LAI | RT-M184V | RT activity | 1.6 µM |
| COc1cc(-c2ccc(Nc3ccccc3C(=O)O)c(OC)c2)ccc1Nc1ccccc1C(=O)O | BaL |  | RT activity | 10.7 µM |
| COc1ccc(/C=N/NC(=O)CN2c3c(-c4ccccc4)n[nH]c3-c3ccccc3S2(=O)=O)cc1OC |  |  |  | >100 µM |
| CN1c2c(-c3ccccc3)nn(CC(=O)N/N=C/c3ccc(O)cc3O)c2-c2ccccc2S1(=O)=O | LAV-1 |  | RT activity | 5.9 µM |
| CC(C)(C)OC(=O)N1[C@H](CO)CC(F)(F)[C@@H]1n1cc(F)c(=O)[nH]c1=O | LAI |  | RT activity | 90.8 µM |
| CCCCCCCCCCCCCCCCOCCCOP(=O)(N[C@H](C(=O)OC)C(C)C)OC[C@@H]1OC[C@H](n2cc(C)c(=O)[nH]c2=O)O1 | LAI | RT-M184V | RT activity | 13.6 µM |
| CN1c2c(-c3ccccc3)nn(CC(=O)N/N=C/c3c(Cl)cccc3Cl)c2-c2ccccc2S1(=O)=O | LAV-1 |  | RT activity | >100 µM |

Repeating the final 6 entries:

smiles	strain	changes	read by	value
COc1cc(-c2ccc(Nc3ccccc3C(=O)O)c(OC)c2)ccc1Nc1ccccc1C(=O)O	BaL		RT activity	10.7 µM
COc1ccc(/C=N/NC(=O)CN2c3c(-c4ccccc4)n[nH]c3-c3ccccc3S2(=O)=O)cc1OC				>100 µM
CN1c2c(-c3ccccc3)nn(CC(=O)N/N=C/c3ccc(O)cc3O)c2-c2ccccc2S1(=O)=O	LAV-1		RT activity	5.9 µM
CC(C)(C)OC(=O)N1[C@H](CO)CC(F)(F)[C@@H]1n1cc(F)c(=O)[nH]c1=O	LAI		RT activity	90.8 µM
CCCCCCCCCCCCCCCCOCCCOP(=O)(N[C@H](C(=O)OC)C(C)C)OC[C@@H]1OC[C@H](n2cc(C)c(=O)[nH]c2=O)O1	LAI	RT-M184V	RT activity	13.6 µM
CN1c2c(-c3ccccc3)nn(CC(=O)N/N=C/c3c(Cl)cccc3Cl)c2-c2ccccc2S1(=O)=O	LAV-1		RT activity	>100 µM